From patent US20060263870A1, “Hydrocarbon processing method and hydrocarbon processing system” (NIHON UNIVERSITY, priority 2005, published 2006)

Test system: Rhodococcus rhodochrous S-2
Experiment: Treatment of various hydrocarbons: growth and localization of S-2 in organic solvent/IB medium bilayer culture
Assay type: cell-based
Conditions: hydrocarbon 5% (v/v) in IB medium, 28° C., 110 rpm, third day of culturing
Protocol: IB liquid medium was prepared as shown below.
As n-alkanes, n-hexane (C6), n-octane (C8), n-nonane (C9), n-decane (C10), n-undecane (C11), n-dodecane (C12), n-tridecane (C13), n-tetradecane (C14), n-pentadecane (C15), n-hexadecane (C16), n-heptadecane (C17), and n-octadecane (C18) were used.
As test strains, Rhodococcus erythropolis PR-4 and Rhodococcus rhodochrous S-2 were used.
On the third day after the start of culturing, the growth status of the test bacteria and sites where the test bacteria had localized were observed. When the test bacteria were present in the organic solvent, they were labeled “inside” and when they were present on the surface of the organic solvent, they were labeled “surface.” The results are shown in Table 1.

| Structure (SMILES) | S-2 localization |
| --- | --- |
| CCCCCCCCCCCCCCCC [n-hexadecane] | surface |
| CCCCCCCCCCCCCC [n-tetradecane] | surface |
| CC(C)CCCC(C)CCCC(C)CCCCC(C)CCCC(C)CCCC(C)C (stereo not drawn) [n-squalane, squalane] | surface |
